Values quoted from earlier work in patent publication US20030195350A1, “Individualization of therapy with antiviral agents” (priority 2001, published 2003).

Conditions: in vivo; cited from earlier work

CC(C)c1nc(CN(C)C(=O)N[C@H](C(=O)N[C@@H](Cc2ccccc2)C[C@H](O)[C@H](Cc2ccccc2)NC(=O)OCc2cncs2)C(C)C)cs1 (relative stereo) [ritonavir, 10-Hydroxy-2-methyl-5-(1-methylethyl)-1-[2-(1-methylethyl)-4-thiazolyl]-3,6-dioxo-8,11-bis(phenylmethyl)-2,4,7,12-tetraazatridecan-13-oic acid, 5-thiazolylmethyl ester, [5S-(5R*,8R*,10R*,11R*)]]
Adverse event: Diarrhea: 23.3%
